A mixed list of measured activities; the numbers were collected in NIAID ChemDB.

Common to all: growth or infection tests; agent: HIV-1

ECn is the concentration giving n% inhibition of infection, replication or growth.

Cc1ncc(-c2ccc(O[C@@H](C)COc3ccccc3)cn2)c(N2CCC(C)(C)CC2)c1[C@H](OC(C)(C)C)C(=O)O ; measure: EC50 ; strain or isolate: NL4-3 ; cells: MT-2 ; method: luminescence ; value: 0.0022 µM
CCC1=C(C(=O)CCc2ccccc2)C(c2ccc(O)c(Cl)c2)NC(=O)N1 ; measure: EC50 ; cells: CEM ; method: p24 / ELISA ; value: >5 µM
CC(C)n1c(=O)c(O)c2n(c1=O)CCN(Cc1ccccn1)C2=O ; measure: EC50 ; cells: MT-4 ; method: p24 ; value: <10 µM
Cc1cn([C@H]2C[C@H](N=[N+]=[N-])[C@@H](CO)O2)c(=O)[nH]c1=O ; measure: EC50 ; mutations: N119 (Y1811C) ; cells: MT-4 ; method: MTT ; value: 0.02 µM
Cc1ncc(-c2cnc(NC3CCc4cc(F)ccc4C3)c(F)c2)c(N2CCC(C)(C)CC2)c1[C@H](OC(C)(C)C)C(=O)O ; measure: EC50 ; strain or isolate: NL4-3 ; cells: MT-2 ; method: luminescence ; value: 0.0071 µM
CCC1=C(CO)C(c2cccc(OC)c2)NC(=O)N1 ; measure: EC50 ; cells: CEM ; method: p24 / ELISA ; value: >5 µM
CC1CN(C(=O)c2ccccc2)CCN1C(=O)C(=O)c1c[nH]c2ccc(OC(F)(F)F)cc2c1=O ; measure: EC50 ; cells: HeLa ; method: luciferase / reporter gene ; value: >0.5 µM
O=C1Nc2ccc(Cl)cc2[C@@](/C=C/C2CC2)(C(F)(F)F)N1 ; measure: EC90 ; mutations: RT-K103N P225H ; value: ~0.15 µM
CC1CN(C(=O)c2ccccc2)CCN1C(=O)C(=O)c1ccc2ccccc2n1 ; measure: EC50 ; cells: HeLa ; method: luciferase / reporter gene ; value: <1 µM
O=C(O)CCNC(=O)c1ccccc1SSc1ccccc1C(=O)NCCC(=O)O ; measure: EC50 ; strain or isolate: IIIB ; cells: CEM ; method: cytopathic effect / XTT ; value: 7.8 µM
Cc1ncc(-c2ccc(OC[C@](C)(O)c3ccccc3)cn2)c(N2CCC(C)(C)CC2)c1[C@H](OC(C)(C)C)C(=O)O ; measure: EC50 ; strain or isolate: NL4-3 ; cells: MT-2 ; method: luminescence ; value: 0.009 µM
CC1=C(C(=O)OCC2CCCCC2)C(c2cccc(OC(=O)c3ccccc3)c2)NC(=O)N1 ; measure: EC50 ; cells: CEM ; method: p24 / ELISA ; value: ≤1 µM
CN1CCN(CCSCc2ccc(-c3cccc(-c4ccc(CSCCN5CCN(C)CC5)cc4)n3)cc2)CC1 ; measure: EC50 ; strain or isolate: LAV-1 ; cells: PBMC ; method: RT activity ; value: 5.9 µM
CCCc1cc(=O)oc2c3c(c4c(c12)OC(C)(C)CC4)O[C@H](C)[C@@H](C)C3=O ; measure: EC50 ; mutations: RT-P236L ; method: cytopathic effect / XTT ; value: 6.76 µM
CC(C)[C@H](NC(=O)OCc1ccccn1)C(=O)N[C@@H](Cc1ccccc1)[C@@H](O)C[C@H](Cc1ccccc1)NC(=O)OCc1cccnc1 ; measure: EC95 ; strain or isolate: NL4-3 ; mutations: PR-I84V ; cells: MT-4 ; method: p24 ; value: 0.8 µM
CC(C)C[C@@H](/C=C/C(=O)O)NC(=O)c1ccccc1SSc1ccccc1C(=O)N[C@H](/C=C/C(=O)O)CC(C)C ; measure: EC50 ; strain or isolate: IIIB ; cells: CEM ; method: cytopathic effect / XTT ; value: 3.7 µM
C[C@@H]1CN(C(=O)c2ccccc2)CCN1C(=O)C1(c2ccc3ccccc3c2)CC1 ; measure: EC50 ; cells: HeLa ; method: luciferase / reporter gene ; value: <1 µM
CC(C)(C)OC(=O)[C@H](CC(N)=O)NC(=O)c1ccccc1SSc1ccccc1C(=O)N[C@@H](CC(N)=O)C(=O)OC(C)(C)C ; measure: EC50 ; strain or isolate: IIIB ; cells: CEM ; method: cytopathic effect / XTT ; value: 5.2 µM
CC(C)CN(C[C@@H](O)[C@H](Cc1ccccc1)NC(=O)O[C@H]1CO[C@H]2OCC[C@H]21)S(=O)(=O)c1ccc(N)c(NCCNC(=O)OC(C)(C)C)c1 ; measure: EC50 ; strain or isolate: IIIB WT ; cells: MT-4 ; method: GFP ; value: 0.0145 µM
CCCC(CF)Oc1ccc(-c2cnc(C)c([C@H](OC(C)(C)C)C(=O)O)c2N2CCC(C)(C)CC2)nc1 ; measure: EC50 ; strain or isolate: NL4-3 ; cells: MT-2 ; method: luminescence ; value: 0.0021 µM
CN1N=C(N)c2cn([C@@H]3O[C@H](COP(=O)(O)O)[C@@H](O)[C@H]3O)c3ncnc1c23 ; measure: EC50 ; strain or isolate: H-1112 ; cells: CEM + CEM-SS ; method: syncytia ; value: 0.16 µM
CC(C)(CN1CCOCC1)Cn1c(=O)c(O)c2n(c1=O)CCN(Cc1ccc(F)cc1)C2=O ; measure: EC50 ; cells: MT-4 ; method: p24 ; value: <10 µM
CC(C)CN(C[C@@H](O)[C@H](Cc1ccccc1)NC(=O)O[C@H]1CO[C@H]2OCC[C@H]21)S(=O)(=O)c1ccc(N)c(NCCN2CCOCC2)c1 ; measure: EC50 ; strain or isolate: IIIB WT ; cells: MT-4 ; method: GFP ; value: 0.0741 µM
O=C1Nc2ccc(F)c(F)c2[C@@](/C=C/C2CC2)(C(F)(F)F)N1 ; measure: EC90 ; mutations: RT-K103N P225H ; value: ~0.19 µM
CN1CCN(Cc2ccc(-c3cccc(-c4ccc(CN5CCN(C)CC5)cc4)n3)cc2)CC1 ; measure: EC50 ; strain or isolate: LAV-1 ; cells: PBMC ; method: RT activity ; value: 22 µM
CCCC[C@@H](CC(=O)O)NC(=O)c1ccccc1SSc1ccccc1C(=O)N[C@@H](CCCC)CC(=O)O ; measure: EC50 ; strain or isolate: IIIB ; cells: CEM ; method: cytopathic effect / XTT ; value: 1.9 µM
CC(C)CN(C[C@@H](O)[C@H](Cc1ccccc1)NC(=O)O[C@H]1CO[C@H]2OCC[C@H]21)S(=O)(=O)c1ccc(N)c(NCCCn2ccnc2)c1 ; measure: EC50 ; strain or isolate: IIIB WT ; cells: MT-4 ; method: GFP ; value: 0.324 µM
COC(=O)CC[C@H](CC#N)NC(=O)c1ccccc1SSc1ccccc1C(=O)N[C@@H](CC#N)CCC(=O)OC ; measure: EC50 ; strain or isolate: IIIB ; cells: CEM ; method: cytopathic effect / XTT ; value: 5.2 µM
CC(C)[Si](OCCC1=C(C(=O)OCC2CCCCC2)C(c2cccc(O)c2)NC(=O)N1)(C(C)C)C(C)C ; measure: EC50 ; cells: CEM ; method: p24 / ELISA ; value: >5 µM
N#CC(C(=O)c1ccc2ccccc2n1)N1CCN(C(=O)c2ccccc2)CC1 ; measure: EC50 ; cells: HeLa ; method: luciferase / reporter gene ; value: <1 µM
Cc1ncc(-c2ccc(N(C)CCOc3ccc(F)cc3F)cn2)c(N2CCC(C)(C)CC2)c1[C@H](OC(C)(C)C)C(=O)O ; measure: EC50 ; strain or isolate: NL4-3 ; cells: MT-2 ; method: luminescence ; value: 0.0013 µM
CN(C)CCSc1cccc(-c2cc(-c3cccc(SCCN(C)C)c3)ncn2)c1 ; measure: EC50 ; strain or isolate: LAV-1 ; cells: PBMC ; method: RT activity ; value: 1.6 µM
CCOC(=O)C1=C(C)NC(=O)NC1c1cccc(O)c1 ; measure: EC50 ; cells: CEM ; method: p24 / ELISA ; value: >5 µM
CC1CN(C(=O)c2ccccc2)CCN1C(=O)C(=O)c1ccc2cc(Br)ccc2n1 ; measure: EC50 ; cells: HeLa ; method: luciferase / reporter gene ; value: <1 µM
CCC(=O)C1=C(CCC2CCCCCC2)NC(=O)N[C@H]1c1ccc(OC(C)=O)c(Cl)c1 ; measure: EC50 ; cells: CEM ; method: p24 / ELISA ; value: >5 µM
O=C(O)CCC[C@H](NC(=O)c1ccccc1SSc1ccccc1C(=O)N[C@@H](CCCC(=O)O)C(=O)O)C(=O)O ; measure: EC50 ; strain or isolate: IIIB ; cells: CEM ; method: cytopathic effect / XTT ; value: >100 µM
CCC1=C(C(=O)OCC2CCCCC2)[C@H](c2cccc(OC(=O)c3ccccc3)c2)NC(=O)N1 ; measure: EC50 ; cells: CEM ; method: p24 / ELISA ; value: ≤1 µM
N#CC(C(=O)c1cnc2c(F)ccc(F)c2c1Sc1ccccc1)N1CCN(C(=O)c2ccccc2)CC1 ; measure: EC50 ; cells: HeLa ; method: luciferase / reporter gene ; value: 1–5 µM
Cc1ncc(-c2ccc(OCCOc3cc(F)cc(F)c3)nc2)c(N2CCC(C)(C)CC2)c1[C@H](OC(C)(C)C)C(=O)O ; measure: EC50 ; strain or isolate: NL4-3 ; cells: MT-2 ; method: luminescence ; value: 0.0051 µM
CCN1CCC[C@H]1CNc1cc(S(=O)(=O)N(CC(C)C)C[C@@H](O)[C@H](Cc2ccccc2)NC(=O)O[C@H]2CO[C@H]3OCC[C@H]32)ccc1N ; measure: EC50 ; strain or isolate: IIIB WT ; cells: MT-4 ; method: GFP ; value: 0.126 µM
Cc1ccc(C)n1-c1ccc(C(=O)O)c(O)c1 ; measure: EC50 ; strain or isolate: RU570 R5 CLADE G ; cells: PBMC + MT-2 ; method: p24 ; value: 98 µM
CCC[C@@H](CCC(=O)O)NC(=O)c1ccccc1SSc1ccccc1C(=O)N[C@@H](CCC)CCC(=O)O ; measure: EC50 ; strain or isolate: IIIB ; cells: CEM ; method: cytopathic effect / XTT ; value: 2.5 µM
C[C@@H]1CN(C(=O)c2ccccc2)CCN1C(C#N)C(=O)c1ccc2ccccc2n1 ; measure: EC50 ; cells: HeLa ; method: luciferase / reporter gene ; value: <1 µM
CC(C)n1c(=O)c(O)c2n(c1=O)CCN(Cc1ccc(F)cc1Cl)C2=O ; measure: EC95 ; cells: MT-4 ; method: p24 ; value: <10 µM
COc1c(O)cc2ccc(=O)oc2c1-c1c(O)ccc2ccc(=O)oc12 ; measure: EC50 ; mutations: AZT-resistant (67N 70R 215F 219Q) ; cells: MT-4 ; method: MTT ; value: 6.6 µM
O=C1c2c(O)c(=O)n(C3CCC(O)CC3)c(=O)n2CCN1Cc1ccc(F)cc1 ; measure: EC50 ; cells: MT-4 ; method: p24 ; value: <10 µM
NC(=O)CC[C@H](NC(=O)c1ccccc1SSc1ccccc1C(=O)N[C@@H](CCC(N)=O)C(=O)O)C(=O)O ; measure: EC50 ; strain or isolate: IIIB ; cells: CEM ; method: cytopathic effect / XTT ; value: 18.3 µM
OCCN(CCO)c1nc(-c2cccs2)cc(-c2cc3ccccc3s2)n1 ; measure: EC50 ; strain or isolate: LAV-1 ; cells: PBMC ; method: RT activity ; value: 60 µM
C[C@@H]1CCO[C@H]2Cn3cc(C(=O)NCc4ccc(F)cc4F)c(=O)c(O)c3C(=O)N12 ; measure: EC50 ; strain or isolate: NL4-3 ; mutations: G118R ; cells: CBMC ; method: RT activity ; value: 0.0077 µM
O=C(O)C[C@H](CCCCNC(=O)OCc1ccccc1)NC(=O)c1ccccc1SSc1ccccc1C(=O)N[C@@H](CCCCNC(=O)OCc1ccccc1)CC(=O)O ; measure: EC50 ; strain or isolate: IIIB ; cells: CEM ; method: cytopathic effect / XTT ; value: 7.1 µM

a–b is a range or a potency band. Lines come from different laboratories, so protocols vary.